Human monoclonal antibodies against the spike receptor-binding domain (heavy:light variable regions). IC50 against pseudoviruses bearing the spike of naturally observed variants; lower = stronger; >10 µg/ml means not reached at the top dose. No active / inactive call. The stated detection limit is 0.0005 µg/ml; values near or below 0.001 µg/ml lie at the floor of the assay.
B1: BD56-091 (protein)
chain 1: QVQLQQWGAGLLKPSETLYLTCAVYSGSFSGYYWSWIRQPPGKGLEWIGEINHRGTTNYNPSLKSRVTISVDTSKNQFSLKLNSVTAADTAVYYCARDHDYDSSGYYYPASSGLVDSWGQGTLVTVSS
chain 2: EIVLTQSPDFQSVTPKEKLTITCRASQNIGNNLHWYQQKPDQPPKVLIKYASQSFSGVPSRFTGSRSGTDFTLTINSLEAEDAATYYCQQSSSLPWTFGQGTKVEIK
B2: BD56-059 (protein)
chain 1: QVQLVQSGAEVKKPGSSVKVSCKASGGTFNNYAINWVRQAPGQGLEWMGRIIPMFEMAHYAQNFQGRVTMTADKSTSTAYMELSSLRSEDTAVFYCATSKFYYDGGEAYYFANWGQGTLVAVSS
chain 2: EIVLTQSPGTLSLSPGERATLSCRASQNVTSRYLAWYQQKPGQAPRLLIYGASTRATGIPDRFSGSGSGTDFTLTIRRLDPEDFAVYYCQQYHTSRTFGQGTKVEIK
B3: BD56-092 (protein)
chain 1: QVQLVQSGAEVKKPGSSVKVSCKASGGTYGSYTITWVRQAPGHGLEWMGGIIPLLATSNYADKLQGRVTITADKSTSTAYMELSSLRSEDTAVYYCASTLGYSDYGSSPYMDVWGKGTTVTVSS
chain 2: QSVLTQPPSVSGAPGQRITISCSGSSSNIWAGYDVHWYQQLPGTAPKLLIFRNSNRPSDVPDRFSGSKSGTSASLAITGLQAEDEADYFCQSYDSSLNGVLFGGGTKVTVL
B4: BD56-085 (protein)
chain 1: QVQLQQSGPGLVKPSQTLSLTCAISGDSVSSNSVAWNWIRQSPSRGLEWLGRTYHRAKWYNDYAISVKRRITINPDTSKNQFSLQLYSVTPEDTAVYYCARVGAAADPDYYFDSWGQGTLVTVSS
chain 2: AIQLTQSPSSLSASVGDKVTITCRASQGISRALAWYQQKPGKPPKLLIFDASSLGGGVPSRFSGSGSGTDFTLTISSLQPEDFATYYCQQFNNYPLTFGQGTRLDMK
B5: BD56-065 (protein)
chain 1: DVQLVQSGAEVKKPGESLKISCRGSGYSFARYWIGWVRQMPGKGLEWMGIIYPGNSDARYSPSFQGQVTISADKSINTAYLQWSSLKASDTAMYYCTRHATYCSTTTCYAEENYYYDMDVWGQGTTVTVSS
chain 2: QSALTQPASVSGSPGQSITISCTGTSSDVGGYHYVSWYQQHPGKAPKLMIYEVSNRPSGVSNRFSGSKSGNTASLTISGLQAEDEADYYCTSYTDSSTSYVFGSGTKVTVL
B6: BD56-075 (protein)
chain 1: EVQLLESGGGLVQPGGSLRLSCSASRFTFSTYAMNWVRQAPGKGLEWVSAISASGDFKYYADSVKGRFTISRDNSKNTLSLQMKSLRADDTAVYYCAKEGGFSDYYDVFDIWGQGTVVTVSS
chain 2: DIQVTQSPSSLSASVGDRVTITCRASQSIGSYLNWYQQKPGKAPKLLIYATSSLPSGVPSRFSGSGSGTDFTLTISSLQPEDFASYYCQQSYNTPPWTFGQGTKVEIK
B7: BD56-069 (protein)
chain 1: EVQLVESGGGLVQPGRSLRLSCAASGFTFDDYAMHWVRQAPGKGLEWVSGISWNGGIIGFADSVKGRFVISRDNAENSLYLHMGSLRAEDTALYYCTKDIQFHGESAFDYWGQGTQVTVSS
chain 2: SYVLTQPPSVSVAPGQTARITCGGNNIGSKSVYWYQQKPGQAPVLVVYDDTDRPSGIPERLSGSNSGNTATLTISRVEAGDEADYFCQVWDSNSDHYVFGTGTKVTVL
B8: BD56-089 (protein)
chain 1: QVQLVQSGAEVKKPGSSVKVSCRTSGGSFGSFAISWVRQAPGQGPEWMGKIIPILGIPNHAQKFQGRVTITADKSTSTAYMDLSSLRSEDTAVYYCARDNGDYYDSSGLMTEYFQHWGQGTLVTVSS
chain 2: QSVLTQPPSVSGAPGQRVTISCTGSNSNIGAGYDVHWYLQLPGTAPKLLIYGHTNRPSGVPDRFSGSKSGTSASLAITGLQAEDEADYYCQSYDSSLSGSVFGSGTKVTVL
B9: BD56-087 (protein)
chain 1: EVQLVESGGGLVKPGGSLRLSCAASRFTFISYTMNWVRQAPGKGLEWVSSISSGSTYIYYADSVKGRFTISRDNAKKSLYLQMNSLRVEDTAVYYCTRVESPDDYDLLTDAFDIWGQGTMVTVSS
chain 2: EIVLTQSPGTLSLSPGERATLSCRASQSISSSYLAWYQQKPGRAPRLLIYAAFSRAAGIPDRFSGSESGTDFTLTISRLEPEDFAVYYCQQYGSSSITFGQGTRLDIK
B10: BD56-071 (protein)
chain 1: QVQLVQSGSELKKPGASVKVSCKASGFTFTNYAINWVRQAPGQGLEWMGWINTNIGDPTYARGFTGRFVFSLDTSVSTAYLQISSLKAEDTAVYYCARLGRFSTSWLDDAFDIWGQGTLVTVSS
chain 2: DIVMTQSPDSLAVSLGERATINCKSSHSVLFSPDNKNFLAWYQQKPGQPPKLLIYWASARESGVPDRFSGSGSGTDFTLTISSLQAEDVAVYYCQQYYSTPLTFGGGTKVEIK
B11: BD56-096 (protein)
chain 1: QVQLVQSGAEVKKPGSSVKVSCKASGGTFSSYTMTWVRQAPGQGLEWMGRIIPFLGVADLAQKFQGRGTITADKSTSTVYMELSSLTSEDTAVYFCAREGSMVQGVTYGTYWFDPWGQGTLVTVSS
chain 2: QSVLTQPPSVSGAPGQRVTISCIGSNSNIGAGYDVQWYQQLPGTAPKLLIYGNINRPSGVPDRFSGSKSDTSASLVIIGLQAEDEADYYCQSYDSSLSGSLFGGGTKLTVL
B12: BD56-105 (protein)
chain 1: VTLKESGPVLVKPTGTLTLTCTVSGFSLNNARMGVSWIRQPPGKALEWLAHIFSNDEKSYNTSLKSRLSISRDTSKSQVVLSMTNMDPVDTATYYCARTSSDSGTYYDDIWFDPWGQGTRVTVSS
chain 2: SSELRQPPSVSVSPGQTARITCSGHTLPNQYAYWYQQRPGQAPVLVIFKDNARPSGIPARFSGSNSGTTVTLTISGVQAEDEADYYCQTADSSGVVFGGGTKLTVL

Target: SARS-CoV-2 Omicron BA.1 spike pseudovirus
Assay: pseudovirus neutralization IC50; higher = weaker neutralization
Description: (§1)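 Single-round VSV luciferase pseudovirus mixed with antibody dilutions for 1 h and put on Huh-7 cells for about a day; IC50 from the dose curve.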

Row | Binder | pseudovirus neutralization IC50
1 | B1 | 0.0331 µg/mL
2 | B2 | 0.397 µg/mL
3 | B3 | 8.43 µg/mL
4 | B4 | 0.0632 µg/mL
5 | B5 | 3.58 µg/mL
6 | B6 | > 10 µg/mL
7 | B7 | 0.056 µg/mL
8 | B8 | 1.03 µg/mL
9 | B9 | 0.0723 µg/mL
10 | B10 | 0.00839 µg/mL
11 | B11 | 0.0498 µg/mL
12 | B12 | > 10 µg/mL

Target: SARS-CoV-2 Omicron BA.2 spike pseudovirus
Assay: as above
Description: as §1

Row | Binder | pseudovirus neutralization IC50
13 | B1 | > 10 µg/mL
14 | B2 | 0.385 µg/mL
15 | B3 | 5.4 µg/mL
16 | B4 | 0.0772 µg/mL
17 | B5 | 2.49 µg/mL
18 | B6 | 8.46 µg/mL
19 | B7 | 0.044 µg/mL
20 | B8 | 0.965 µg/mL
21 | B9 | 0.0817 µg/mL
22 | B10 | 0.00671 µg/mL
23 | B11 | 0.0406 µg/mL
24 | B12 | > 10 µg/mL

Target: SARS-CoV-2 Omicron BA.2.75 spike pseudovirus
Assay: as above
Description: as §1

Row | Binder | pseudovirus neutralization IC50
25 | B1 | > 10 µg/mL
26 | B2 | 0.0493 µg/mL
27 | B3 | 6.5 µg/mL
28 | B4 | 0.0361 µg/mL
29 | B5 | 2.21 µg/mL
30 | B6 | > 10 µg/mL
31 | B7 | 0.0578 µg/mL
32 | B8 | 1.26 µg/mL
33 | B9 | 0.0569 µg/mL
34 | B10 | 0.0177 µg/mL
35 | B11 | 0.042 µg/mL
36 | B12 | > 10 µg/mL

Target: SARS-CoV-2 Omicron BA.5 spike pseudovirus
Assay: as above
Description: as §1

Row | Binder | pseudovirus neutralization IC50
37 | B1 | > 10 µg/mL
38 | B2 | > 10 µg/mL
39 | B3 | 5.94 µg/mL
40 | B4 | 0.0579 µg/mL
41 | B5 | > 10 µg/mL
42 | B6 | 8.67 µg/mL
43 | B7 | 0.884 µg/mL
44 | B8 | > 10 µg/mL
45 | B9 | > 10 µg/mL
46 | B10 | 0.00734 µg/mL
47 | B11 | 0.362 µg/mL
48 | B12 | > 10 µg/mL

Target: SARS-CoV-2 Omicron BQ.1.1 spike pseudovirus
Assay: as above
Description: as §1

Row | Binder | pseudovirus neutralization IC50
49 | B1 | > 10 µg/mL
50 | B2 | > 10 µg/mL
51 | B3 | 4.96 µg/mL
52 | B4 | > 10 µg/mL
53 | B5 | > 10 µg/mL
54 | B6 | > 10 µg/mL
55 | B7 | 0.95 µg/mL
56 | B8 | > 10 µg/mL
57 | B9 | > 10 µg/mL
58 | B10 | 2.25 µg/mL
59 | B11 | 1.45 µg/mL
60 | B12 | > 10 µg/mL

Target: SARS-CoV-2 Omicron XBB spike pseudovirus
Assay: as above
Description: as §1

Row | Binder | pseudovirus neutralization IC50
61 | B1 | > 10 µg/mL
62 | B2 | > 10 µg/mL
63 | B3 | 3.84 µg/mL
64 | B4 | > 10 µg/mL
65 | B5 | > 10 µg/mL
66 | B6 | > 10 µg/mL
67 | B7 | > 10 µg/mL
68 | B8 | > 10 µg/mL
69 | B9 | > 10 µg/mL
70 | B10 | 2.09 µg/mL
71 | B11 | 0.663 µg/mL
72 | B12 | > 10 µg/mL

Target: SARS-CoV-2 early D614G spike pseudovirus
Assay: as above
Description: as §1

Row | Binder | pseudovirus neutralization IC50
73 | B1 | 0.00918 µg/mL
74 | B2 | 0.00836 µg/mL
75 | B3 | 6.32 µg/mL
76 | B4 | 0.0222 µg/mL
77 | B5 | 0.0589 µg/mL
78 | B6 | 2.79 µg/mL
79 | B7 | 0.0258 µg/mL
80 | B8 | 0.959 µg/mL
81 | B9 | 0.696 µg/mL
82 | B10 | 0.00526 µg/mL
83 | B11 | 0.184 µg/mL
84 | B12 | > 10 µg/mL

Source: the supplement of paper PMC9931576
